Assay results taken from patent US20130157924A1, “REDUCING TRANSMISSION OF SEXUALLY TRANSMITTED INFECTIONS” (THE REGENTS OF THE UNIVERSITY OF CALIFORNIA, priority 2010, published 2013).

The chains behind the UniProt entries cited, without tags or fusion partners. Residues count along the entry.
UniProt P15309, 248-286 limits assumed: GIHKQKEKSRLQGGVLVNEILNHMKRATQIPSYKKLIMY

Biological target: amyloid fibrils formed from SEVI peptides (Homo sapiens, UniProt P15309)
Assay: Fluorescence assay, affinity/avidity of BTA monomer and oligomers for SEVI fibrils
Format: binding
Conditions: read-out: SEVI Fibrils Kd; estimated affinity/avidity constants
Method: To test whether binding affinity/avidity is reduced in oligomeric forms, the binding of monomeric and oligomeric forms was assayed to determine the affinity/avidity constants (Kd) for the binding of monomer and oligomers 1-5 to amyloid fibrils formed from SEVI peptides. Affinity/avidity constants were estimated using a standard fluorescence assay, as described recently (J. S. Olsen et al, J. Biol. Chem., 2010, 285, 35488-35496). The BTA based monomer has a higher Kd than oligomeric forms. Estimated Kds are show in Table 2.

Compound: Cc1ccc2nc(-c3ccc(NCCC(=O)NCCOCCOCCOCCOCCC(=O)NCCN(CCNC(=O)CCOCCOCCOCCOCCNC(=O)CCNc4ccc(-c5nc6ccc(C)cc6s5)cc4)CCNC(=O)CCOCCOCCOCCOCCNC(=O)CCNc4ccc(-c5nc6ccc(C)cc6s5)cc4)cc3)sc2c1
- Kd: 40 nM
